Pooled drug test results. Numbers come from NIAID ChemDB, via PubChem.

Common to all: whole-cell or culture tests; organism: HIV-1; endpoint: EC50

Rows are shuffled and stem from different studies. ECn is the concentration giving n% inhibition of infection, replication or growth. Blank or dashed fields: not listed here. a–b is a range or a potency band.

SMILES,cells,conditions,strain,read by,mutations,value
Cc1ccc(-c2ccc3c(c2)C=C(C(=O)Nc2ccc(C[N+](C)(C)C4CCOCC4)cc2)CCC3)cc1,PBMC,-,Du204 CLADE C,p24,-,<1 µM
Cc1ncc(-c2cnc(OCC3CC=CC3)c(F)c2)c(N2CCC(C)(C)CC2)c1[C@H](OC(C)(C)C)C(=O)O,MT-2,-,NL4-3,luminescence,-,0.0037 µM
C[C@H]1[C@H](O)[C@@H](C)/C=C/C=C/C=C/C=C/C=C/C=C/C=C/[C@H](O[C@@H]2O[C@H](C)[C@@H](O)[C@H](N)[C@@H]2O)C[C@@H]2O[C@](O)(C[C@@H](O)C[C@@H](O)CC[C@H](O)[C@@H](O)C[C@@H](O)CC(=O)O[C@H]1C)C[C@H](O)[C@H]2C(=O)O,PBMC,-,CMU08 CLADE E X4 (SI),p24 / RT activity,-,0.9 µM
CCCc1cc(=O)oc2c3c(c4c(c12)OC(C)(C)CC4)O[C@H](C)[C@@H](C)C3=O,-,-,-,cytopathic effect / XTT,RT-L100I,>100 µM
COc1ccc(N(C)C(=O)[C@H](Cc2ccccc2)NC(=O)CN2c3ccccc3N(CC(=O)N[C@@H](Cc3ccccc3)C(=O)N(C)c3ccc(OC)cc3)S2(=O)=O)cc1,MT-2,-,NL4-3,luciferase,-,0.04 µM
COc1ccc2sc3c(c2c1)SCCn1cnnc1-3,OM-10.1,-,-,p24,-,2.9 µM
Cc1ncc(-c2ccc(OCCn3cccc3C)cn2)c(N2CCC(C)(C)CC2)c1[C@H](OC(C)(C)C)C(=O)O,MT-2,-,NL4-3,luminescence,-,0.0072 µM
C[C@]1(CO)O[C@@H](n2cnc3c(N)ncnc32)C[C@@H]1O,HOS,-,-,luciferase,M184V (delta)Env,>10 µM
COc1cnc(-n2cnc(C)n2)c2[nH]cc(C(=O)C(=O)N3CCC(=C(c4ccccc4)c4cnn(C)c4)CC3)c12,HeLa,-,-,luciferase,-,<1 µM
N#CC1=CC2Nc3ccccc3C2N(c2ccc([N+](=O)[O-])cc2)C1=O,HeLa,-,A-92UG029,GFP / fluorescence,-,1 µM
COc1ccc(-c2c(C)nc3c(N4CC[C@@H](NS(=O)(=O)c5ccccc5)C4)cc(C)nn23)cc1OC,H9,-,-,p24,-,0.5 µM
COc1ccc2sc3c(c2c1)SCC/C3=N\OC(C)=O,OM-10.1,-,-,p24,-,0.4 µM
O=C1Nc2ccc(Cl)cc2[C@@](C#CC2CC2)(C(F)(F)F)O1,HEK293T,-,p8.9,luciferase,-,2.73 nM
CCN1c2ncc(CCOc3ccc(-c4ccc(N)c(C(=O)O)c4)cc3C)cc2C(=O)N(C)c2cccnc21,C8166,-,-,p24,RT-K103N Y181C,<0.01 µM
CC(C)=CCOc1cc(NC(=S)c2ccsc2C)ccc1Cl,CEM + CEM-SS,-,NL4-3,p24,RT-A98G,0.009 µM
O=C1NCCN(Cc2cccc(Cl)c2)c2c1sc1ccc([N+](=O)[O-])cc21,OM-10.1,-,-,p24,-,<0.08 µM
COc1cccc2[nH]cc(C(=O)C(=O)N3CCN(C(=O)c4ccccc4)C[C@H]3C)c12,MT-2/CXCR4,-,IIIB,virus yield,-,0.0394 µM
O=C1Nc2ccc(Cl)cc2C(OCC=C(Cl)Cl)(C(F)(F)F)O1,-,-,-,-,-,<0.0095 µM
COc1ccc(N(C)C(=O)[C@H](Cc2ccccc2)NC(=O)CN2CCN(CC(=O)N[C@@H](Cc3ccccc3)C(=O)N(C)c3ccc(OC)cc3)C2=O)cc1,MT-2,-,NL4-3,luciferase,-,0.17 µM
Cc1ncc(-c2cnc(OCCOc3ccc(F)cc3)c(F)c2)c(N2CCC(C)(C)CC2)c1[C@H](OC(C)(C)C)C(=O)O,MT-2,-,NL4-3,luminescence,-,0.0009 µM
Cc1ccc(-n2c(SCC(=O)Nc3ccc(C)cc3Br)nnc2C(F)(F)F)cc1,HeLa + HeLa-JC53,-,NL4-3,luciferase,RT-K103N Y181C,1.1 µM
CC(C)=CCOc1cc(NC(=S)c2ccoc2C)ccc1Cl,CEM + CEM-SS,-,IIIB,cytopathic effect / XTT,-,0.01 µM
CN(C(=O)[C@H](Cc1cc(F)cc(F)c1)NC(=O)CN1c2ccccc2N(CC(=O)N[C@@H](Cc2cc(F)cc(F)c2)C(=O)N(C)c2ccc3snnc3c2)S1(=O)=O)c1ccc2snnc2c1,MT-2,-,NL4-3,luciferase,-,0.02 µM
O=C1NCCN(Cc2ccccc2)c2c1sc1ccc(F)cc21,OM-10.1,-,-,p24,-,0.01 µM
O=C1Nc2ccc(Cl)cc2C(OCC(F)(F)C(F)(F)F)(C(F)(F)F)O1,-,-,-,-,-,<0.6506 µM
COc1cnc(Cl)c2[nH]cc(C(=O)C(=O)N3CCC(=C(C#N)c4ccccn4)CC3)c12,HeLa,-,-,luciferase,-,<1 µM
O=C1NCCN(Cc2ccccc2)c2c1sc1ccc(Cl)cc21,OM-10.1,-,-,p24,-,<0.002 µM
COc1ccc(N(C)C(=O)[C@H](Cc2ccccc2)NC(=O)/C=C\C(=O)N[C@@H](Cc2ccccc2)C(=O)N(C)c2ccc(OC)cc2)cc1,MT-2,-,NL4-3,luciferase,-,0.16 µM
Cc1ncc(-c2ccc(NCCOc3ccc(Cl)cc3Cl)nc2)c(N2CCC(C)(C)CC2)c1[C@H](OC(C)(C)C)C(=O)O,MT-2,-,NL4-3,luminescence,-,0.0063 µM
CC(C)=CCOc1cc(NC(=S)c2ccsc2C)ccc1Cl,CEM + CEM-SS,-,SK1,cytopathic effect / XTT,-,0.003 µM
COc1ncc(OC)c2c(C(=O)C(=O)N3CCC(=C(C#N)c4c(C)sc(C)c4C)CC3)c[nH]c12,HeLa,-,-,luciferase,-,>5 µM
O=C1Nc2ccc(F)c(F)c2C(C#Cc2ccccn2)(C(F)(F)F)O1,-,-,-,-,RT-K103N,<0.193 µM
Cc1ncc(-c2ccc(OCCC3=CCCCC3)cn2)c(N2CCC(C)(C)CC2)c1[C@H](OC(C)(C)C)C(=O)O,MT-2,-,NL4-3,luminescence,-,0.0029 µM
COc1ncc(OC)c2c(C(=O)C(=O)N3CCC(=C(C#CC(=O)O)c4ccccc4)CC3)c[nH]c12,HeLa,-,-,luciferase,-,<1 µM
CN(CC(=O)O)Cc1ccc2c(c1)C[C@H](CN=C(N)N)[C@H]2NC(=O)C(=O)Nc1ccc(Cl)c(F)c1,Cf2Th-CD4/CCR5,-,JR-FL,luminescence,-,17.1 µM
CCN1c2ncc(CCOc3ccc(-n4ccnc4)cc3C)cc2C(=O)N(C)c2cccnc21,C8166,-,-,p24,RT-K103N Y181C,<0.01 µM
CCN(C(=O)[C@H](Cc1cc(F)cc(F)c1)NC(=O)NS(=O)(=O)N[C@@H](Cc1cc(F)cc(F)c1)C(=O)N(CC)c1ccc2oc(=O)n(CC)c2c1)c1ccc2oc(=O)n(CC)c2c1,MT-2,-,NL4-3,luciferase,-,24.73 µM
CC(=O)N[C@@H]1CCN(c2cc(C)nn3c(-c4cccc(S(=O)(=O)N(C)C)c4)c(C)nc23)C1,H9,-,-,p24,-,0.5 µM
Cc1ccc(-c2ccc(NC(=O)N3CCC4(CCO4)CC3)cc2)cc1,TZM-bl,pseudotyped,VSV-G,luminescence,-,>30 µM
Cc1ccc2c(C)ccc(-n3c(C)nnc3SCC(=O)Nc3ccc(S(N)(=O)=O)cc3Cl)c2n1,HeLa + HeLa-JC53,-,NL4-3,luciferase,RT-Y188L,0.015 µM
CCN1c2ncc(CCOc3ccc(C(=O)Nc4ccc(C(=O)O)cc4)cc3C)cc2C(=O)N(C)c2cccnc21,C8166,-,-,p24,RT-K103N Y181C,0.01–0.05 µM
Cc1ccc2c(C)ccc(-n3c(C)nnc3SCC(=O)Nc3ccccc3Br)c2c1,HeLa + HeLa-JC53,-,NL4-3,luciferase,RT-Y188L,0.12 µM
CCCN(C)Cc1ccc2c(c1)C[C@H](CN=C(N)N)[C@H]2NC(=O)C(=O)Nc1ccc(Cl)c(F)c1,Cf2Th-CD4/CCR5,-,JR-FL,luminescence,-,8 µM
CCN1c2ncc(CCOc3ccc(-c4ccc(C(=O)O)cc4)c(C)c3)cc2C(=O)N(C)c2cccnc21,C8166,-,IIIB,p24,-,0.01–0.05 µM
COc1ccc(-c2c(C)nn3c(N4CC[C@@H](NC(C)=O)C4)nc(C)nc23)cc1OC,H9,-,-,p24,-,>100 µM
Cc1ccc(C)n1-c1ccc(C(=O)O)c(O)c1,PBMC + MT-2,-,RU570 R5 CLADE G,p24,-,98 µM
COc1ccc(-n2cnc3c(N4CC[C@@H](NC(C)=O)C4)nc(C)nc32)cc1OC,H9,-,RF,p24,-,>100 µM
C[C@H](Cn1cnc2c(N)ncnc21)OCP(=O)(O)O,TZM-bl,-,-,-,NL/348,4 µM
CN1c2ccccc2C2C1C=C(C#N)C(=O)N2c1ccc([N+](=O)[O-])cc1,HeLa,-,14AG,GFP / fluorescence,-,0.04 µM
CC(C)CN(C[C@@H](O)[C@H](Cc1ccccc1)NC(=O)O[C@H]1CO[C@H]2OCC[C@H]21)S(=O)(=O)c1ccc2c(c1)OCO2,PHA-PBM,-,BaL,p24,-,0.0002 µM
CCN1c2ncc(CCOc3ccc(-c4cocn4)cc3C)cc2C(=O)N(C)c2cccnc21,C8166,-,IIIB,p24,-,<0.01 µM
Cc1ncc(-c2ccc(OCCOc3ccccc3Cl)cn2)c(N2CCC(C)(C)CC2)c1[C@H](OC(C)C)C(=O)O,MT-2,-,NL4-3,luminescence,-,0.0025 µM
N#CC(=C1CCN(C(=O)C(=O)c2c[nH]c3c(-n4cncn4)ncc(F)c23)CC1)c1ccccc1,HeLa,-,-,luciferase,-,<1 µM
CN(CCc1ccccc1)Cc1ccc2c(c1)C[C@H](CN=C(N)N)[C@H]2NC(=O)C(=O)Nc1ccc(Cl)c(F)c1,Cf2Th-CD4/CCR5,-,JR-FL,luminescence,-,32.2 µM
O=C1Nc2ccc(Cl)cc2C(C#Cc2ccccn2)(C(F)(F)F)O1,-,-,-,-,RT-K103N,<0.064 µM
CC(=O)N[C@@H]1CCN(c2cc(C)nn3c(-c4ccc5ccn(C)c5c4)c(C)nc23)C1,H9,-,-,p24,-,1 µM
Cc1ncc(-c2cnc(OCC3CCCCC3)c(F)c2)c(N2CCC(C)(C)CC2)c1[C@H](OC(C)(C)C)C(=O)O,MT-2,-,NL4-3,luminescence,-,0.0061 µM
COCc1nnc(SCC(=O)Nc2ccc(C)cc2Br)n1-c1ccc(C)cc1,HeLa + HeLa-JC53,-,NL4-3,luciferase,RT-K103N Y181C,>10 µM
CCC(=O)c1ccc(F)c([C@@H]2C[C@@H]2NC(=O)Nc2ccc(C#N)cn2)c1O,TZM-bl,-,LAI,β-galactosidase / luminescence,NNRTI-resistant (RT F227L),0.00088 µM
COc1cnc(-c2cnc(N)cn2)c2[nH]cc(C(=O)C(=O)N3CCC(=C(C#N)c4ccccn4)CC3)c12,HeLa,-,-,luciferase,-,<1 µM
CCN1c2ncc(CCOc3ccc(-c4ccc(CC(=O)O)c(F)c4)cc3C)cc2C(=O)N(C)c2cccnc21,C8166,-,-,p24,RT-K103N Y181C,<0.01 µM

7 of the rows above, restated:

{"SMILES": "CCN1c2ncc(CCOc3ccc(-c4cocn4)cc3C)cc2C(=O)N(C)c2cccnc21", "cells": "C8166", "strain": "IIIB", "read by": "p24", "value": "<0.01 µM"}
{"SMILES": "C[C@H](Cn1cnc2c(N)ncnc21)OCP(=O)(O)O", "cells": "TZM-bl", "mutations": "NL/348", "value": "4 µM"}
{"SMILES": "C[C@H]1[C@H](O)[C@@H](C)/C=C/C=C/C=C/C=C/C=C/C=C/C=C/[C@H](O[C@@H]2O[C@H](C)[C@@H](O)[C@H](N)[C@@H]2O)C[C@@H]2O[C@](O)(C[C@@H](O)C[C@@H](O)CC[C@H](O)[C@@H](O)C[C@@H](O)CC(=O)O[C@H]1C)C[C@H](O)[C@H]2C(=O)O", "cells": "PBMC", "strain": "CMU08 CLADE E X4 (SI)", "read by": "p24 / RT activity", "value": "0.9 µM"}
{"SMILES": "Cc1ccc(-n2c(SCC(=O)Nc3ccc(C)cc3Br)nnc2C(F)(F)F)cc1", "cells": "HeLa + HeLa-JC53", "strain": "NL4-3", "read by": "luciferase", "mutations": "RT-K103N Y181C", "value": "1.1 µM"}
{"SMILES": "COc1cnc(Cl)c2[nH]cc(C(=O)C(=O)N3CCC(=C(C#N)c4ccccn4)CC3)c12", "cells": "HeLa", "read by": "luciferase", "value": "<1 µM"}
{"SMILES": "COc1ccc(-n2cnc3c(N4CC[C@@H](NC(C)=O)C4)nc(C)nc32)cc1OC", "cells": "H9", "strain": "RF", "read by": "p24", "value": ">100 µM"}
{"SMILES": "C[C@]1(CO)O[C@@H](n2cnc3c(N)ncnc32)C[C@@H]1O", "cells": "HOS", "read by": "luciferase", "mutations": "M184V (delta)Env", "value": ">10 µM"}